This is a selection; strong and weak results do not stand in their true shares. Results filed as inconclusive are left out. Calls of active or inactive are those of the source. Unless noted, calls follow the shape of the full dose curve.
How the values were obtained:
[1] = Primary qHTS to identify inhibitors of SARS-CoV-2 cell entry (AID 1645846); conditions: SARS-CoV-2 pseudovirus cell entry assay, luminescence; also: potency is read from the fitted curve at half-maximal effect; nearly all actives have a fitted effect of over 45% in size
[2] = molecular target: Pyruvate kinase (Leishmania mexicana) (UniProt Q27686); assay: qHTS Validation Assay for Inhibitors of Leishmania Mexicana Pyruvate Kinase (AID 945; active = well fitted inhibition curve with a large enough effect;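 also: 0% = DMSO only neutral control wells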); conditions: purified L. mexicana pyruvate kinase, enzyme activity, E451W mutant enzyme; at 57.5 µM (top of the series)
In short: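 LmPYK E451W 0.2 nM; 0.5 mM PEP, 0.1 mM ADP, 7 mM MgCl2, 50 mM KCl, imidazole pH 7.2, 0.01% Tween 20, 0.05% BSA; 1 h RT; PKLight luminescence; DMSO-normalized.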

SMILES | Potency [1] | activity change, negative = inhibition [2]
N[C@@H](Cc1ccc([N+]([O-])(CCCl)CCCl)cc1)C(=O)O | active: 14.1 µM | –
CN(C(=O)Cc1ccccc1)[C@@H]1CC[C@@]2(CCCO2)C[C@H]1N1CCCC1 | – | inactive: 14.4%
